{
  "sequences": {"note": "Protein sequences, listed by entry. Tags and fused reporters are not part of them. Lines headed by an entry give the natural chain unless they say otherwise; changes in a name come on top. Residues count along the entry.", "UniProt P04439": "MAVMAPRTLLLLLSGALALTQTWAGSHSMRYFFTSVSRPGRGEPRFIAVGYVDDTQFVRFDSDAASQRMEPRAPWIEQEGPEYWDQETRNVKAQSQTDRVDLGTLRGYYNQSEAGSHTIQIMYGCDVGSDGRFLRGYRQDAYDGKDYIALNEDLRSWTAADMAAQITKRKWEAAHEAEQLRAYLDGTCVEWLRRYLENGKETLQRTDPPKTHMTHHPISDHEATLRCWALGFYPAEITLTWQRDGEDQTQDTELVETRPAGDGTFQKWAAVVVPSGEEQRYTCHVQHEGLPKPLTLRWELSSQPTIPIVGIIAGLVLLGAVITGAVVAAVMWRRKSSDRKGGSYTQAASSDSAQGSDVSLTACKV", "UniProt Q30154, 30-266": "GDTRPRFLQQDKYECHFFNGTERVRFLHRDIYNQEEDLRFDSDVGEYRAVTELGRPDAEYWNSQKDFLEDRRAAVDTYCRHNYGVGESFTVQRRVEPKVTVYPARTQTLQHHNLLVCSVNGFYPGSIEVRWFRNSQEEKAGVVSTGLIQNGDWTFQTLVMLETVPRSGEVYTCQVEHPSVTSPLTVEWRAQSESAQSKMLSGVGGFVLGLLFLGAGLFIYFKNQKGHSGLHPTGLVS"},
  "source": "patent US20050271676A1",
  "about": "“Inducing cellular immune responses to human immunodeficiency virus-1 using peptide and nucleic acid compositions” (Epimmune Inc., priority 1993, published 2005)",
  "key": {"HLA-A*3101": {"target": "HLA-A*3101 (Homo sapiens, UniProt P04439, A270S/D185E/E176V/E277Q/F33T/G231S/G80R/H175R/I121M/I218V/I322F/K168Q/L300P/L318F/M331R/P217A/Q94H/R138Q/T323A/T345S/T97I/V358M)", "experiment": "purified HLA class I binding assay, A*3101"}, "HLA-DRB1*0301 (DR3)": {"target": "T1, HLA-DRB1*0301 (DR3) (Homo sapiens, UniProt P01903+P01911, A100K/A102G/A103R/A169T/F55Y/I96L/K41T/L162R/M171V/P40S/Q125H/Q178H/Q39Y/R42S/S66N/T106N/T262R/W38E/Y61H)", "T1 construct": "endogenous in cells; host or cells: MAT", "experiment": "purified HLA class II binding assay, DRB1*0301 (DR3), pH 4.5"}, "HLA-DRB1*0401 (DR4w4)": {"target": "T2, HLA-DRB1*0401 (DR4w4) (Homo sapiens, UniProt P01903+P01911, A100K/A169T/F76Y/I96L/K127E/L162R/M171V/N62H/P40V/Q125Y/R42H/S133A/S149N/S66Y/V115G/V209L/W38E)", "T2 construct": "endogenous in cells; host or cells: Preiss", "experiment": "purified HLA class II binding assay, DRB1*0401 (DR4w4)"}, "HLA-DRB1*0701 (DR7)": {"target": "T3, HLA-DRB1*0701 (DR7) (Homo sapiens, UniProt P01903+P01911, A100R/A102G/A103Q/D57E/D86V/E43K/F76Y/K127E/L162R/M171V/P40G/Q125H/Q99D/R33Q/R42Y/R54Q/S133A/S66F/T210M/V115G/Y107V/Y59L/Y89S)", "T3 construct": "endogenous in cells; host or cells: Pitout", "experiment": "biochemical", "type": "binding"}, "HLA-DRB1*0901 (DR9)": {"target": "T4, HLA-DRB1*0901 (DR9) (Homo sapiens, UniProt P01903+P01911, A100R/A103E/D57H/D86V/F55Y/F60I/F76Y/I96F/K127E/L162R/M171V/P40D/Q125H/Q99R/R33Q/R42F/S133A/S66N/T210M/V115G/W38K/Y107V/Y59G/Y89S)", "T4 construct": "endogenous in cells", "experiment": "biochemical", "type": "binding"}, "HLA-DRB1*1201 (DR5w12)": {"target": "T5, HLA-DRB1*1201 (DR5w12) (Homo sapiens, UniProt P01903+P01911, A100R/A169T/D57E/D86V/F55L/H45Y/K41T/L162R/M171V/P40S/Q125H/Q178H/Q39Y/Q99D/R42G/S66L/T262R/V114A/V67L/W38E/Y59H/Y61H/Y89S)", "T5 construct": "endogenous in cells", "experiment": "purified HLA class II binding assay, DRB1*1201 (DR5w12)"}, "HLA-DRB1*1302 (DR6w19)": {"target": "HLA-DRB1*1302 (DR6w19) (Homo sapiens, UniProt P01903+P01911, A100E/A169T/K41T/L162R/M171V/P40S/Q125H/Q178H/Q39Y/Q99D/R42S/S66N/T262R/V115G/W38E/Y61H)", "experiment": "purified HLA class II binding assay, DRB1*1302 (DR6w19)"}, "HLA-DRB1*0802 (DR8w2)": {"target": "T6, HLA-DRB1*0802 (DR8w2) (Homo sapiens, UniProt P01903+P01911, A100R/A103L/A169T/F76Y/H45Y/I96F/K41T/L162R/M171V/P40S/Q125H/Q178H/Q39Y/Q99D/R218S/R42G/S66Y/V115G/W38E)", "T6 construct": "endogenous in cells", "experiment": "biochemical", "type": "binding"}, "HLA-DRB5*0101 (DR2w2β2)": {"target": "T7, HLA-DRB5*0101 (DR2w2β2) (Homo sapiens, UniProt P01903+Q30154)", "T7 construct": "expressed in transfected cells", "type": "binding"}, "HLA-A*0203": {"target": "HLA-A*0203 (Homo sapiens, UniProt P04439, A173T/D140Y/D185E/D98H/E277Q/G131W/G231S/I119V/I121R/I166T/I218V/L180W/L300P/L318F/N151K/N90K/P208A/P217A/Q86G/Q94H/R138H/R169H/T345S)", "experiment": "purified HLA class I binding assay, A*0203"}, "HLA-A*0201": {"target": "HLA-A*0201 (Homo sapiens, UniProt P04439, D140Y/D185E/D98H/E176V/E277Q/G131W/G231S/I119V/I121R/I166T/I218V/L300P/L318F/N151K/N90K/P208A/P217A/Q86G/Q94H/R138H/R169H/T345S)", "experiment": "purified HLA class I binding assay, A*0201"}},
  "data": [
    {"compound": "CC[C@H](C)[C@H](NC(=O)[C@H](CCCCN)NC(=O)[C@@H](NC(=O)[C@@H](NC(=O)[C@@H](N)C(C)C)[C@@H](C)O)[C@@H](C)CC)C(=O)NCC(=O)NCC(=O)N[C@@H](CCC(N)=O)C(=O)N[C@@H](CC(C)C)C(=O)N[C@@H](CCCCN)C(=O)O", "note": "[1273.09]", "values": [
      {"measurement": "IC50", "setting": "HLA-A*3101", "value": 10.6, "unit": "µM"}
    ]},
    {"compound": "CC(C)[C@H](NC(=O)[C@H](Cc1ccc(O)cc1)NC(=O)[C@H](Cc1ccccc1)NC(=O)[C@@H](NC(=O)[C@H](CCC(=O)O)NC(=O)[C@H](C)N)[C@@H](C)O)C(=O)N[C@@H](CC(=O)O)C(=O)NCC(=O)N[C@@H](C)C(=O)N[C@@H](C)C(=O)N[C@@H](CC(N)=O)C(=O)N[C@@H](CCCNC(=N)N)C(=O)N[C@@H](CCC(=O)O)C(=O)N[C@H](C(=O)N[C@@H](CCCCN)C(=O)O)[C@@H](C)O", "note": "[Peptide 35.0125]", "values": [
      {"measurement": "IC50", "setting": "HLA-DRB1*0301 (DR3)", "value": 0.769, "unit": "µM"}
    ]},
    {"compound": "CC(C)C[C@H](NC(=O)[C@H](CCCCN)NC(=O)[C@@H](NC(=O)[C@H](CC(C)C)NC(=O)[C@@H]1CCCN1C(=O)[C@@H]1CCCN1C(=O)[C@@H](NC(=O)[C@H](CC(N)=O)NC(=O)[C@@H](NC(=O)[C@H](Cc1ccccc1)NC(=O)[C@H](CCC(=O)O)NC(=O)[C@@H](N)Cc1c[nH]c2ccccc12)C(C)C)[C@@H](C)O)C(C)C)C(=O)N[C@@H](Cc1c[nH]c2ccccc12)C(=O)N[C@@H](Cc1ccc(O)cc1)C(=O)N[C@@H](CCC(N)=O)C(=O)O", "note": "[Peptide 27.0354]", "values": [
      {"measurement": "IC50", "setting": "HLA-DRB1*0301 (DR3)", "value": 13.6, "unit": "µM"}
    ]},
    {"compound": "CC[C@H](C)[C@H](NC(=O)[C@H](CO)NC(=O)[C@@H]1CCCN1C(=O)[C@@H](NC(=O)[C@@H](NC(=O)[C@H](Cc1ccccc1)NC(=O)[C@H](C)NC(=O)[C@@H](NC(=O)[C@H](Cc1ccc(O)cc1)NC(=O)[C@H](CCCCN)NC(=O)[C@H](CCCNC(=N)N)NC(=O)[C@@H](N)Cc1ccccc1)[C@@H](C)O)[C@@H](C)O)[C@@H](C)CC)C(=O)N[C@@H](CC(N)=O)C(=O)N[C@@H](CC(N)=O)C(=O)N[C@@H](CCC(=O)O)C(=O)O", "note": "[Peptide 27.0341]", "values": [
      {"measurement": "IC50", "setting": "HLA-DRB1*0301 (DR3)", "value": "> 20", "unit": "µM"},
      {"measurement": "IC50", "setting": "HLA-DRB1*0401 (DR4w4)", "value": 0.294, "unit": "µM"},
      {"measurement": "IC50", "setting": "HLA-DRB1*0701 (DR7)", "value": 0.03, "unit": "µM"},
      {"measurement": "IC50", "setting": "HLA-DRB1*0901 (DR9)", "value": 0.039, "unit": "µM"},
      {"measurement": "IC50", "setting": "HLA-DRB1*1201 (DR5w12)", "value": "> 20", "unit": "µM"},
      {"measurement": "IC50", "setting": "HLA-DRB1*1302 (DR6w19)", "value": "> 20", "unit": "µM"}
    ]},
    {"compound": "CC[C@H](C)[C@H](NC(=O)CNC(=O)[C@H](Cc1c[nH]c2ccccc12)NC(=O)[C@@H](NC(=O)[C@@H](NC(=O)[C@H](CC(C)C)NC(=O)[C@H](CCC(N)=O)NC(=O)[C@H](CC(C)C)NC(=O)[C@H](CC(C)C)NC(=O)[C@H](Cc1c[nH]cn1)NC(=O)[C@@H](N)CCC(N)=O)[C@@H](C)O)C(C)C)C(=O)N[C@@H](CCCCN)C(=O)N[C@@H](CCC(N)=O)C(=O)N[C@@H](CC(C)C)C(=O)N[C@@H](CCC(N)=O)C(=O)O", "note": "[Peptide 27.0297]", "values": [
      {"measurement": "IC50", "setting": "HLA-DRB1*0401 (DR4w4)", "value": 1.32, "unit": "µM"}
    ]},
    {"compound": "CC[C@H](C)[C@H](NC(=O)[C@H](C)NC(=O)[C@H](CCC(N)=O)NC(=O)[C@H](Cc1c[nH]cn1)NC(=O)[C@@H](NC(=O)[C@H](CCSC)NC(=O)[C@H](CCC(N)=O)NC(=O)CNC(=O)[C@@H](N)CCC(N)=O)C(C)C)C(=O)N[C@@H](CO)C(=O)N1CCC[C@H]1C(=O)N[C@@H](CCCNC(=N)N)C(=O)N[C@H](C(=O)N[C@@H](CC(C)C)C(=O)N[C@@H](CC(N)=O)C(=O)O)[C@@H](C)O", "note": "[Peptide 27.0304]", "values": [
      {"measurement": "IC50", "setting": "HLA-DRB1*0802 (DR8w2)", "value": 7.31, "unit": "µM"}
    ]},
    {"compound": "ASDFNLPPVVAKEIY", "values": [
      {"measurement": "DR4w4 binding", "setting": "HLA-DRB1*0401 (DR4w4); HIV DR super motif peptides, unit not given", "value": "−0.0028"},
      {"measurement": "DR7 binding", "setting": "HLA-DRB1*0701 (DR7)", "value": 0.0840},
      {"measurement": "DR2w2β2 binding", "setting": "HLA-DRB5*0101 (DR2w2β2)", "value": "−0.0021"}
    ]},
    {"compound": "CC(C)C[C@H](NC(=O)[C@@H](N)[C@@H](C)O)C(=O)N[C@@H](Cc1c[nH]c2ccccc12)C(=O)N[C@@H](CCC(N)=O)C(=O)N[C@@H](CCCNC(=N)N)C(=O)N1CCC[C@H]1C(=O)N[C@@H](CC(C)C)C(=O)N[C@H](C(=O)N[C@H](C(=O)O)[C@@H](C)O)C(C)C", "note": "[25.0046]", "values": [
      {"measurement": "IC50", "setting": "HLA-A*0203", "value": 2.5, "unit": "µM"},
      {"measurement": "IC50", "setting": "HLA-A*0201", "value": 0.27, "unit": "µM"}
    ]},
    {"compound": "CC[C@H](C)[C@H](NC(=O)[C@H](Cc1ccccc1)NC(=O)[C@@H](NC(=O)[C@H](C)NC(=O)[C@H](CCSC)NC(=O)[C@H](CCC(N)=O)NC(=O)[C@@H](NC(=O)[C@H](C)NC(=O)[C@@H](NC(=O)[C@@H](N)CCCCN)[C@@H](C)O)C(C)C)C(C)C)C(=O)N[C@@H](Cc1c[nH]cn1)C(=O)N[C@@H](CC(N)=O)C(=O)N[C@@H](Cc1ccccc1)C(=O)N[C@@H](CCCCN)C(=O)N[C@@H](CCCNC(=N)N)C(=O)O", "note": "[Peptide 27.0373]", "values": [
      {"measurement": "IC50", "setting": "HLA-DRB1*0802 (DR8w2)", "value": 1.44, "unit": "µM"},
      {"measurement": "IC50", "setting": "HLA-DRB1*1201 (DR5w12)", "value": 18.6, "unit": "µM"}
    ]}
  ]
}
